{
  "source": "patent US20240374736A1",
  "about": "“INHALED LIQUID FOR THE TREATMENT OF RESPIRATORY INFECTIONS IN HUMANS CAUSED BY PATHOGENS RESISTANT TO ANTIBIOTICS” (priority 2023, published 2024)",
  "system": "humans",
  "assay": "Clinical pilot study of side effects on 80 humans (inhalation)",
  "conditions": "after ten working days from the end of the testing",
  "data": [
    {"compound": "C=CCc1ccc(O)c(OC)c1.CCN(CC)CC(=O)Nc1c(C)cccc1C", "note": "[novel compound, N-[N′-(carboxymethylenyl-2,6-dimethyl-aniline)-N,N-diethylammonium]-[2′-methoxy-4′-(2′-propenyl)]-phenolate]", "values": [
      {"measurement": "irregularities after the end of the testing", "result": "no irregularities were observed"}
    ]}
  ]
}
